Reference: PubChem BioAssay AID624099 (ICCB-Longwood, 2012)

- Aim: 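Knock-downs relieving repression by E2 of an HPV18 LCR luciferase reporter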 (primary screen)
- Cell system: human C33A cervical carcinoma cells (HPV-negative) stably expressing BPV1 E2 and an HPV18 LCR luciferase reporter
- Reagents: siRNA pool against human genes, 40 nM
- Timing: 72 h
- Read-out: 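HPV18 LCR reporter light per well, converted to plate-wise z-scores that exclude control wells, and averaged over triplicate plates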
- Direction: mean z-score and z-score: higher = stronger reporter signal, weaker E2 silencing
- Rule for the call: 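Mean z ≥ 2 together with z ≥ 2 in two or more of the three replicates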
Here is one part, drawn at random, of about 21,000 reagents. Over the whole deposit, 497 (2.4%) are marked active. 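Higher z means weaker E2 silencing; only reporter increases were scored, and knock-downs that hurt cell survival may mask genuine repressor factors.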 Unmarked entries are inactive. The numbers tell different reagents against one gene apart. Reagent sequences are not shown.

The opening 4 entries, ahead of the listing:
target gene | reagent no. | mean z-score | z-score, replicate A | z-score, replicate B | z-score, replicate C
SOX15 | 1 | 1.39 | 1.47 | 1.28 | 1.42
PPP3R2 | 1 | -0.25 | -0.3 | -0.23 | -0.23
COMMD4 | 1 | -0.1 | 0.11 | -0.22 | -0.18
ICMT-DT | 1 | 0.21 | 0.06 | 0.29 | 0.27

Results, repeating the preview:
target gene | reagent no. | mean z-score | z-score, replicate A | z-score, replicate B | z-score, replicate C
SOX15 | 1 | 1.39 | 1.47 | 1.28 | 1.42
PPP3R2 | 1 | -0.25 | -0.3 | -0.23 | -0.23
COMMD4 | 1 | -0.1 | 0.11 | -0.22 | -0.18
ICMT-DT | 1 | 0.21 | 0.06 | 0.29 | 0.27
ARHGAP29 | 1 | -1.36 | -1.21 | -1.46 | -1.41
PFAS | 1 | 0.58 | 0.69 | 0.7 | 0.34
DNAJC22 | 1 | -0.68 | -0.57 | -0.69 | -0.78
CUBN | 1 | 0.7 | 0.77 | 0.66 | 0.68
ZNF649 | 1 | -0.79 | -0.53 | -1.01 | -0.83
SIGLEC12 | 1 | -0.4 | -0.33 | -0.56 | -0.29
OR2B3 | 1 | 0.33 | 0.52 | 0.34 | 0.15
SEMA4D | 1 | 0.16 | 0.51 | -0.07 | 0.04
SEMA4D | 2 | 1.94 | 2.19 | 1.66 | 1.96
DLAT | 1 | 0.53 | 0.5 | 0.47 | 0.64
ADD2 | 1 | -0.51 | -0.12 | -0.61 | -0.79
REXO2 | 1 | -1.64 | -1.69 | -1.65 | -1.58
PDE8A | 1 | 0.15 | 0.25 | 0.41 | -0.21
CA12 | 1 | 0.67 | 0.8 | 0.74 | 0.48
NACAD | 1 | -0.41 | -0.45 | -0.35 | -0.43
PLEKHJ1 | 1 | 0.12 | 0.54 | 0.08 | -0.27
HNRNPD | 1 | 2.55 (active) | 3.06 | 2.23 | 2.36
LPP | 1 | 0.81 | 0.94 | 0.38 | 1.11
GALNT4 | 1 | -0.57 | -0.82 | -0.66 | -0.21
CGB1 | 1 | 0.44 | 2.05 | -0.33 | -0.39
ARHGAP24 | 1 | 1.05 | 0.79 | 0.96 | 1.4
EPPK1 | 1 | 0.58 | 0.44 | 0.61 | 0.67
SOD3 | 1 | 0.26 | 0.15 | 0.26 | 0.36
OR5P2 | 1 | -0.83 | -0.96 | -0.72 | -0.8
MGC13053 (retired record) | 1 | -1.16 | -1.14 | -0.84 | -1.5
RPP30 | 1 | -1.34 | -1.24 | -1.35 | -1.42
CSDE1 | 1 | 0.42 | -0.43 | 0.82 | 0.86
GOLGA8G | 1 | -0.18 | -0.29 | -0.27 | 0.02
GOLGA8G | 2 | -0.72 | -0.66 | -0.74 | -0.74
PTP4A2 | 1 | 0.51 | 0.37 | 0.65 | 0.5
PACC1 | 1 | -0.54 | -0.92 | -0.73 | 0.02
BNIP3L | 1 | -0.6 | -0.49 | -0.59 | -0.72
DCLRE1A | 1 | 1.17 | 1.1 | 1.25 | 1.16
SP2 | 1 | -0.7 | -0.84 | -0.71 | -0.56
GMPR2 | 1 | 0.42 | 0.2 | 0.7 | 0.35
PIGT | 1 | -0.01 | -0.16 | 0.1 | 0.02
MIEN1 | 1 | -0.41 | 0.22 | -0.77 | -0.68
MYLIP | 1 | 0.66 | 1.09 | 0.62 | 0.28
SV2A | 1 | 1.6 | 1.49 | 1.21 | 2.11
XAGE1B | 1 | -1.65 | -1.34 | -1.75 | -1.86
UBXN2B | 1 | 0.79 | 0.98 | 0.97 | 0.43
HSD17B2 | 1 | -0.97 | -1.29 | -0.79 | -0.83
ASCC1 | 1 | -0.02 | -0.31 | 0.27 | -0.02
POU5F1 | 1 | 1.34 | 1.37 | 1.67 | 0.99
LOC390367 (retired record) | 1 | 0.21 | 0.39 | 0.25 | 0
SH3GL1 | 1 | -0.16 | -0.18 | 0 | -0.3
SH3BGRL | 1 | 0.63 | 0.27 | 1.3 | 0.33
SERAC1 | 1 | 0.27 | 0.14 | 0.11 | 0.55
MOB1A | 1 | -0.57 | -0.36 | -1.02 | -0.35
GREB1L | 1 | 0.88 | 0.75 | 1.14 | 0.76
PLPP2 | 1 | -1.42 | -1.26 | -1.56 | -1.43
ADRA1A | 1 | 0.09 | -0.58 | 0.12 | 0.73
ECE1 | 1 | -0.66 | -0.35 | -0.91 | -0.72
NOX5 | 1 | 0.84 | 0.65 | 0.74 | 1.12
COL8A1 | 1 | 0.4 | 0.42 | 0.44 | 0.33
GRIK3 | 1 | 1.32 | 1.33 | 1.3 | 1.32
FCRL1 | 1 | 0.25 | 0.29 | 0.36 | 0.08
BPIFA3 | 1 | -0.16 | -0.05 | -0.48 | 0.03
LOC400726 (retired record) | 1 | 1.01 | 1.06 | 1.15 | 0.82
ZNF292 | 1 | -1.08 | -1.12 | -1.15 | -0.98
RPSAP10 | 1 | -0.62 | -0.89 | -0.21 | -0.77
DDX60L | 1 | 0.52 | 0.13 | 0.83 | 0.62
DDX60L | 2 | -0.45 | -0.19 | -0.93 | -0.24
TMEM120B | 1 | -2 | -2.09 | -1.97 | -1.94
KRTAP9-2 | 1 | 0.3 | 0.37 | 0.32 | 0.2
COA3 | 1 | -0.54 | -0.45 | -0.55 | -0.61
LINC01777 | 1 | 0.17 | 0.07 | 0.52 | -0.07
CIDEA | 1 | -0.04 | -0.09 | 0.05 | -0.07
ZNF280A | 1 | -0.18 | -0.2 | -0.13 | -0.2
